This passage reports inhibition results from PubChem BioAssay AID1626 (SRMLSC, 2009).

The structures appear in SMILES notation. Some of the results follow. Active and inactive are the calls of the source. Cut-off read from the data, not from the text of the source: inconclusive = inhibition above about 80% without an active follow-up result; inactive = below that; test concentration not stated here.

By inhibition is commonly meant the change of the read-out against control, counted positive when it falls.

This assay is described as follows: M. tuberculosis H37Rv growth inhibitors, H37Rv strain (AID 1626).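 Note: bacteria incubated seven days before Alamar blue readout; 0% = bacteria only wells and 100% = bacteria with antibiotic wells.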 The conditions noted are these: stronger effect = higher value, concentration not given here.
As to `Cc1ccc(OP(=O)(Nc2ccc([N+](=O)[O-])cn2)Oc2ccc(C)cc2)cc1`, the inhibition was inactive: -9.63%.
